Laboratory results published in patent EP0926242A1, “GLIOTOXIN DERIVATIVES AND ANTICANCER AGENT COMPRISING THE SAME” (priority 1996, dated 1998).

Tested on: mouse carcinoma of the colon cells colon 26
Test: Anticancer effect in vivo against colon 26 (Example 9 A)
Details: CDFI mice
Protocol: • (A) Evaluationin vivo using mouse carcinoma of the colon cells colon 26 CDFI mice (female : 4 weks age) were bought, and colon 26 subcultured in the subcutaneous tissue of the mouse was taken out, and cut into small pieces by a scissors. The cancer cells were transplanted into subcutaneous tisue of CDFI mice by a trucker. The day was assigned 0 day, and the tumor was measured by a slide caliper after 7 days. The volume of the tumor was calculated, and divided into groups (each group : n = 4). The text compound was dissolved in dimethylsulfoxide, and diluted with 5 % Tween 80- saline aqueous solution. […] The administration was carried out after 7 days, after 11 days and after 15 days or after 7 days and after 8 days from the transplantation at a rate of once per one day. 21st day from the transplantation, the volume of tumor was measured and the volume of tumor and the inhibition against tumor multiplication rate (I.R.) were calculated. The volume of tumor was calculated by the following formula. (Tumore Volume [mm)^3 (]= Minor Axis [mm])^2 × Major Axis [mm] × (1/2) [formula] • The inhibition against tumor multiplication rate (I.R.) was calculated by the following formula. I.R. [%] = {1- (Average Tumor Volume of Administration Group / Average Tumor Volume of Control Group)) × 100 [formula] • (B) Evaluation in vivo using human carcinoma of the colon cells HCT-116 Balb/c nu/nu mice (female : 5 weks age) were bought, and HCT-116 (Dainippon Seiyaku) subcultured in the subcutaneous tissue of the mouse was taken out, and cut into small pieces by a scissors. The cancer cells were transplanted into subcutaneous tissue of […] mice by a trucker. The day was assigned 0 day, and the tumor was measured by a slide caliper after 7 days. The volume of the tumor was calculated, and divided into groups (each group : n = 2). The text compound was dissolved in dimethylsulfoxide, and diluted with 5 % Tween 80- saline aqueous solution. […] The administration was carried out after 7 days, after 11 days and after 15 days from the transplantation at a rate of once per one day. 21st day from the transplantation, the volume of tumor was measured and the volume of tumor and the inhibition against tumor multiplication rate (I.R.) were calculated by the above formulas.

[1] = 2.5[mg/kg]×3 (i.p.), 7,11,15th days
[2] = 5 [mg/kg]×3 (i.p.), 7,11,15th days

Row | SMILES | day of I.R.Max [1] | day of I.R.Max [2] | day of I.R.Max (10 [mg/kg]×2 (i.p.), 7,8th days) | day of I.R.Max (10 [mg/kg]×2 (i.v.), 7, 14th days)
1 | CN1C(=O)[C@]23Cc4ccccc4N2C(=O)[C@]1(CO)SS3 [Compound of Example 3, (3S, 10aR)―2,3-dihydro―3―(hydroxymethyl)―2― methyl―10H―3,10a―epidithiopyrazino[1,2―a]indole― 1,4―dione] | 8 days | 8 days | – | –
2 | CC(=O)OC1C=CC=C2CC34SSC(CO)(C(=O)N3C21)N(C)C4=O (stereo not drawn) [acetylgliotoxin] | 10 days | 9 days | 10 days | –
3 | COc1cccc2c1C(=O)c1c(O)c3c(c(O)c1C2=O)C[C@@](O)(C(=O)CO)C[C@@H]3O[C@H]1C[C@H](N)[C@H](O)[C@H](C)O1 [Adriamycin, reference compound] | – | – | – | 21 days
